Measured values from several laboratories, pooled; numbers as filed in NIAID ChemDB.

Common to all: toxicity to cultured cells; cells: TZM-bl; read-out: CC50

Blank or dashed fields: not listed here. Neighbouring rows are from separate reports. CCn: concentration that lowers growth or viability of the cells by n%.

SMILES,read by,value
O=Cc1ccc2cccc(O)c2n1,MTT,83.21 µM
Cc1cc(C)c(Nc2nc(N)nc(Nc3ccc(C#N)nc3)n2)c(C)c1,MTT,33.5 µg/mL
Cc1cn([C@H]2C[C@H](N=[N+]=[N-])[C@@H](CO)O2)c(=O)[nH]c1=O,MTT,872 µM
NCCC(NC(=O)c1ccc(-c2ccc(C(F)(F)F)cn2)[nH]1)c1csc(C(=O)NCCO)n1,MTS / absorbance,>106.7 µM
Cc1cc(C)c(Nc2ccnc(Nc3ccc(C#N)cc3)n2)c(C)c1,WST,2.88 µM
Cc1cc(-c2ccc(C(F)(F)F)cn2)[nH]c1C(=O)NC(C)(CCN)c1nc(CO)cs1,MTS / absorbance,>68.3 µM
NC[C@@H](NC(=O)c1ccc(-c2ccc(Cl)cn2)[nH]1)c1ncc(CO)s1,MTS,>132 µM
Cc1cn(CC(=O)Nc2ccccn2)c(=O)[nH]c1=O,MTT,49 µM
O=[N+]([O-])c1ccc(Nc2cc(-c3cccnc3)nc3ccccc23)c(F)c1,MTT,20 µM
Oc1cccc2ccc(/C=N/Nc3ccc(Br)cc3)nc12,MTT,108 µM
COc1cc(-c2nnc(-c3ccc4cccc(OC)c4n3)o2)cc(OC)c1OC,MTT,65.58 µM
NCC(NC(=O)c1ccc(-c2ccc3c(c2)OCO3)[nH]1)c1ncc(CO)s1,MTS,>100 µM
C[C@@H]1O[C@@H](Oc2c(-c3ccc(O)cc3)oc3cc(O)cc(O)c3c2=O)[C@H](O[C@@H]2O[C@H](COC(=O)/C=C/c3ccc(O)cc3)[C@@H](O)[C@H](O)[C@H]2O)[C@H](O)[C@H]1O,absorbance,>100 µg/mL
Brc1cccc(N=Cc2cc3ccccc3nc2Nc2cccc(Br)c2)c1,MTT,103.1 µM
COc1ccc(/C=C/c2cc(Cl)c3cc(Cl)ccc3n2)cc1,MTT,19.08 µM
O=C1NC(=Nc2ccc(F)c(Cl)c2)S/C1=C\c1ccc(-c2ccc(C(=O)O)c(O)c2)o1,XTT,>50 µM
CC(C)(C)c1cc(N2C(=O)CSC2c2c(F)cccc2Cl)no1,MTT,40.7 µg/mL
Oc1cccc2ccc(/C=N/Nc3ccc(F)cc3F)nc12,MTT,53.68 µM
Cc1cc(/C=C/C#N)cc(C)c1Nc1nc(Nc2ccc(C#N)cc2)nc(N(C)C)n1,WST,8.06 µM
Cc1nc(C(CN)NC(=O)C(=O)Nc2ccc3c(c2)OCO3)sc1CO,MTS,≥750 µM
CC(C)c1c(Cc2ccccc2)n(COCc2ccccc2)c(=O)[nH]c1=O,XTT,65.8 µM
COc1ccc(N(C)C(=O)[C@H](Cc2ccccc2)NC(=O)c2cccc(-c3cn(-c4cnc5ccccc5c4)nn3)c2)cc1,MTT,>34.33 µM
Cc1nc(C(CN)NC(=O)c2ncc(-c3ccc(Cl)cc3)[nH]2)sc1CO,XTT / absorbance,>51 µM
O=C(CCC(=O)n1cnc2c([N+](=O)[O-])cccc21)n1cnc2c([N+](=O)[O-])cccc21,MTT,185 µM
Cc1cc(C)nc(N2C(=O)CSC2c2c(Cl)cncc2Cl)c1,MTT,37.3 µg/mL
Cc1cc(/C=C/C#N)cc(C)c1Nc1nc(Nc2ccc(C#N)cc2)nc(N2CCCCC2)n1,WST,>100 µM
Clc1ccc2nc(/C=C/c3ccc(-c4ccccc4)cc3)cc(Cl)c2c1,MTT,17.54 µM
CCCCCCCCCCCCCCCCCC1N[C@@H](CO)[C@H](O)[C@H](O)[C@@H]1O,resazurin,24 µM
CC(C)C[C@H](NC(=O)c1ccc(NC(=O)[C@H](Cc2c[nH]c3ccccc23)NC(=O)CCC(=O)NCCOCNC(=O)CCC(=O)N[C@@H](Cc2c[nH]c3ccccc23)C(=O)Nc2ccc(C(=O)N[C@@H](CC(C)C)C(=O)O)cc2OCCc2c[nH]c3ccccc23)c(OCCc2c[nH]c3ccccc23)c1)C(=O)O,absorbance,>50 µM
COc1ccc(N/N=C/c2ccc3cccc(O)c3n2)cc1,MTT,138 µM
CC(C)(C)c1cc(N2C(=O)CSC2c2c(Cl)cccc2Cl)no1,MTT,48.5 µg/mL
Cc1cn(C2CC(n3nnc(C4(C(F)(F)F)OC(=O)Nc5ccc(Cl)cc54)c3C3CC3)C(CO)O2)c(=O)[nH]c1=O,MTS,57.57 µg/mL
COc1ccc(-c2ccc(C(=O)NC(CN)c3ncc(CO)s3)[nH]2)cc1OC,XTT / absorbance,>50 µM
NC[C@@H](NC(=O)c1ccc(-c2ccc(Cl)cn2)[nH]1)c1csc(CO)n1,MTS,>106 µM
O=C(N[C@@H](Cc1ccc(N(CC2CCCCC2)C(=O)OCc2ccccc2)cc1)C(=O)O)OCC1c2ccccc2-c2ccccc21,XTT,35 µM
O=C(Cn1cnc2ccccc21)Nc1ccccn1,MTT,542 µM
C=CCCC(=O)N(CC1CCCCC1)c1ccc(C[C@H](NC(=O)OCC2c3ccccc3-c3ccccc32)C(=O)O)cc1,XTT,>69 µM
Cc1ccc(N/N=C/c2ccc3cccc(O)c3n2)c(C)c1,MTT,368 µM
Cc1cc(N2C(=O)CSC2c2c(Cl)cccc2Cl)no1,MTT,40.5 µg/mL
O=C1NC(=NCCc2ccc(F)cc2)S/C1=C\c1ccc(-c2cccc([N+](=O)[O-])c2)o1,XTT,>50 µM
NCCC(NC(=O)c1ccc(-c2ccc(F)cn2)[nH]1)c1nc(CO)cs1,MTS / absorbance,>138 µM
Cc1cn(CC(=O)Nc2ccc([N+](=O)[O-])cn2)c(=O)[nH]c1=O,MTT,78.75 µM
COc1cccc2ccc(-c3nnc(-c4ccccc4F)o3)nc12,MTT,27.45 µM
Clc1ccc2nc(/C=C/c3ccco3)cc(Cl)c2c1,MTT,41.02 µM
CC(C)(N)CC(NC(=O)c1ccc(-c2ccc(C(F)(F)F)cn2)[nH]1)c1nc(CO)cs1,MTS / absorbance,61 µM
Cc1ccc(-c2cc(-c3ccccc3)n(-c3ccc(Cl)cc3)n2)c(=O)[nH]1,MTT,532 µM
CC1CCCCC1C(=O)N(CC1CCCCC1)c1ccc(C[C@H](NC(=O)OCC2c3ccccc3-c3ccccc32)C(=O)N2CCCC2C(=O)O)cc1,XTT,24.5 µM
O=C1NC(=Nc2ccc(Cl)c(F)c2)S/C1=C\c1ccc(-c2ccc(C(=O)O)c(O)c2)o1,XTT,>50 µM
Fc1cccc(N=Cc2cc3ccccc3nc2Nc2cccc(F)c2)c1,MTT,56.1 µM
Cc1nc(C(CN(C)C)NC(=O)c2ccc(-c3ccc(Cl)c(F)c3)[nH]2)sc1CO,XTT / absorbance,>40 µM
O=C(N[C@@H](Cc1ccc(N(CC2CCCCC2)C(=O)C(F)(F)F)cc1)C(=O)O)OCC1c2ccccc2-c2ccccc21,XTT,>67 µM
C[C@@H](NC(=O)C(=O)Nc1ccc(Cl)cc1)[C@H](c1ccccc1)N1CCOCC1,XTT,>99.6 µM
Cc1cc(/C=C/C#N)cc(C)c1Oc1cc(Nc2ccc(C#N)cc2)c(N)cc1S(N)(=O)=O,XTT,>21.8 µM
c1cncc(-c2nc(Nc3ccc4n[nH]nc4c3)c3ccccc3n2)c1,MTT,150 µM
O=C(CCC(=O)Nc1ccc(Br)cn1)Nc1ccc(Br)cn1,MTT,487.6 µM
Cc1cc(C)cc(N/N=C/c2ccc3cccc(O)c3n2)c1,MTT,192 µM
CCN[C@@H]1C[C@H](N)[C@@H](O[C@H]2OC(CN)=CC[C@H]2N)[C@H](O)[C@H]1O[C@H]1OC[C@](C)(O)[C@H](NC)[C@H]1O,-,23.1 µM
C=C(C)C(=O)N(CC1CCCCC1)c1ccc(C[C@H](NC(=O)OCC2c3ccccc3-c3ccccc32)C(=O)N2CCCC2C(=O)O)cc1,XTT,60 µM
O=C1NC(=NCCc2ccc(F)cc2)S/C1=C\c1ccc(-c2ccc(C(=O)O)c(O)c2)o1,XTT,>50 µM
Cc1cc(C)cc(-n2nc(-c3ccc(C)[nH]c3=O)cc2-c2ccccc2)c1,MTT,371 µM
NC[C@H](NC(=O)c1ccc(-c2ccc(Cl)cn2)[nH]1)c1csc(CO)n1,MTS,>106 µM
COc1ccc(N(C)C(=O)[C@H](Cc2ccccc2)NC(=O)c2cccc(-c3cn(C4CC(n5cc(C)c(=O)[nH]c5=O)OC4CO)nn3)c2)cc1,MTT,>29.42 µM
O=C(CCC(=O)Nc1ccc([N+](=O)[O-])cn1)Nc1ccc([N+](=O)[O-])cn1,MTT,442.5 µM
Cc1cc(N2C(=O)CSC2c2c(F)cccc2Cl)no1,MTT,38.5 µg/mL
COc1cc(C[C@@H]2C(=O)N[C@@H](C(C)C)CC(=O)O[C@@H]([C@H](O)c3ccccc3)/C=C/C=C(\C)C(OC)CCC/C=C(\C)C(=O)C(C)C(=O)N2C)ccc1O,-,0.12 µM
COc1cccc2ccc(-c3nnc(-c4ccco4)o3)nc12,MTT,36.18 µM
CC1=C(CO)CC(C(C)C2CCC3C4CC=C5CC(OC6OC(COC7OC(CO)C(O)C(O)C7O)C(O)C(O)C6O)CC(O)C5(C)C4CCC23C)OC1=O,absorbance,>100 µg/mL
Cc1cc(/C=C/C#N)cc(C)c1Nc1nc(N)nc(Nc2ccc(C#N)cc2)n1,WST,34.65 µM
COc1cc2c(=O)[nH]c(-c3ccc[nH]3)nc2c(OC)c1OC,fluorescence,68.6 µM
COc1cc(/C=C/c2cc(Cl)c3ccccc3n2)cc(OC)c1OC,MTT,41.6 µM
Cc1ccc(N=Cc2cc3ccccc3nc2Nc2ccc(C)cc2)cc1,MTT,134 µM

The last 10 rows once more:

{"SMILES": "COc1ccc(N(C)C(=O)[C@H](Cc2ccccc2)NC(=O)c2cccc(-c3cn(C4CC(n5cc(C)c(=O)[nH]c5=O)OC4CO)nn3)c2)cc1", "read by": "MTT", "value": ">29.42 µM"}
{"SMILES": "O=C(CCC(=O)Nc1ccc([N+](=O)[O-])cn1)Nc1ccc([N+](=O)[O-])cn1", "read by": "MTT", "value": "442.5 µM"}
{"SMILES": "Cc1cc(N2C(=O)CSC2c2c(F)cccc2Cl)no1", "read by": "MTT", "value": "38.5 µg/mL"}
{"SMILES": "COc1cc(C[C@@H]2C(=O)N[C@@H](C(C)C)CC(=O)O[C@@H]([C@H](O)c3ccccc3)/C=C/C=C(\\C)C(OC)CCC/C=C(\\C)C(=O)C(C)C(=O)N2C)ccc1O", "value": "0.12 µM"}
{"SMILES": "COc1cccc2ccc(-c3nnc(-c4ccco4)o3)nc12", "read by": "MTT", "value": "36.18 µM"}
{"SMILES": "CC1=C(CO)CC(C(C)C2CCC3C4CC=C5CC(OC6OC(COC7OC(CO)C(O)C(O)C7O)C(O)C(O)C6O)CC(O)C5(C)C4CCC23C)OC1=O", "read by": "absorbance", "value": ">100 µg/mL"}
{"SMILES": "Cc1cc(/C=C/C#N)cc(C)c1Nc1nc(N)nc(Nc2ccc(C#N)cc2)n1", "read by": "WST", "value": "34.65 µM"}
{"SMILES": "COc1cc2c(=O)[nH]c(-c3ccc[nH]3)nc2c(OC)c1OC", "read by": "fluorescence", "value": "68.6 µM"}
{"SMILES": "COc1cc(/C=C/c2cc(Cl)c3ccccc3n2)cc(OC)c1OC", "read by": "MTT", "value": "41.6 µM"}
{"SMILES": "Cc1ccc(N=Cc2cc3ccccc3nc2Nc2ccc(C)cc2)cc1", "read by": "MTT", "value": "134 µM"}